Article PMC6943496, “Antiplasmodial Activity of Nitroaromatic Compounds: Correlation with Their Reduction Potential and Inhibitory Action on Plasmodium falciparum Glutathione Reductase” (Molecules, 2019)

Sequences of proteins named here, by UniProt entry; tags and fusion partners are left off. Residues count along the entry.
UniProt P00390, 44-522 limits assumed: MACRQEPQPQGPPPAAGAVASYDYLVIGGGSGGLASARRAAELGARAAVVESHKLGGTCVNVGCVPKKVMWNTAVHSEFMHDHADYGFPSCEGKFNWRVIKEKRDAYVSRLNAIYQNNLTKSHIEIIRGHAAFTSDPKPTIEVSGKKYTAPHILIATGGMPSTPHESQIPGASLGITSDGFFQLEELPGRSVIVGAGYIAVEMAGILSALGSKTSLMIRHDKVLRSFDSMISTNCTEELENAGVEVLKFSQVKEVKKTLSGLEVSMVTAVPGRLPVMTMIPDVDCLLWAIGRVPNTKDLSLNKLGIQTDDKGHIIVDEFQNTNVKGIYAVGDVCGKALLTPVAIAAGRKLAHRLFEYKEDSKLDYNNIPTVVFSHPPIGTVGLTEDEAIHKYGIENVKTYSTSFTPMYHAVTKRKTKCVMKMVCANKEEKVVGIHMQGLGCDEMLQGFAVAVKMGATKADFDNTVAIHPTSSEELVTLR

These molecules were tested against P. falciparum glutathione reductase (PfGR) (Plasmodium falciparum, UniProt Q94655) (assay: NADPH oxidation at […] nm, Cleland plot ([…]/kcat vs [I])). Conditions: read-out: Ki (μM) / PfGR ^a; 100 μM NADPH, varied GSSG (0.13-1.0 mM), pH 7.0, 25 °C, 0.1 M K-phosphate, 1 mM EDTA; non- or uncompetitive vs GSSG.

SMILES | Ki [µM]
NC(=O)c1cc(/C=C/c2ccc([N+](=O)[O-])o2)nc2ccccc12 | 25
O=C(NCCCN1CCOCC1)c1cc(/C=C/c2ccc([N+](=O)[O-])o2)nc2ccccc12 | 35
NCCCNC(=O)c1cc(/C=C/c2ccc([N+](=O)[O-])o2)nc2ccccc12 | 5
O=C(O)c1cc(/C=C/c2ccc([N+](=O)[O-])o2)nc2ccccc12 | 9
O=C(NCCN1CCOCC1)c1cc(/C=C/c2ccc([N+](=O)[O-])o2)nc2ccccc12 | 75
O=C(NCCCO)c1cc(/C=C/c2ccc([N+](=O)[O-])o2)nc2ccccc12 | 50

These molecules were tested against Human erythrocyte glutathione reductase (HGR) (Homo sapiens, UniProt P00390) (assay: enzyme kinetics, inhibition of GSSG reduction). Conditions: read-out: Ki (μM) / HGR ^b; 100 μM NADPH, varied GSSG, pH 7.0, 25 °C.
Text: enzyme kinetics, inhibition of GSSG reduction on Human erythrocyte glutathione reductase (HGR)

SMILES | Ki [µM]
O=C(O)c1cc(/C=C/c2ccc([N+](=O)[O-])o2)nc2ccccc12 | 3.5
